{
  "source": "patent US20220220106A1",
  "about": "“QUINOLINE COMPOUNDS AND PHARMACEUTICAL COMPOSITIONS AND USES THEREOF” (Academy of Military Medical Sciences, priority 2019, published 2022)",
  "data": [
    {"system": "Enterovirus 71 (EV71) H strain", "assay": "In vitro anti-EV71 activity (antiviral activity in RD cells, CellTiter-Glo)", "format": "cell-based", "conditions": "selection index SI=TD50/IC50", "experimental": "According to the mass and molecular weight of the compound to be tested, the compound to be tested was dissolved to 100 mM (mmol/L) with DMSO.\nDetection of Antiviral Activity:\n(1) First, the compound to be tested was diluted to 800 μM with cell maintenance solution (DMEM+2% FBS, Gibco, catalog numbers: 11995-065, 1600-044), and three-fold gradient dilution was performed to prepare 10 concentrations in total. The diluted compound was added to a 96-well plate with white wall and transparent bottom, 50 μl per well. To both the cell control group and the virus control group, an equal volume of the cell maintenance solution was added.\n(2) EV71 virus (purchased from ATCC) was taken out from the −80° C. refrigerator and equilibrated to room temperature.\n(3) The virus seed was diluted with a virus growth solution (DMEM+2% FBS, Gibco, catalog numbers: 11995-065, 1600-044) to 100TCID50, the diluted virus seed was added to the 96-well plate of (1), with […] per well. The same volume of the virus growth solution was added to the cell control group.\n(4) RD cells (purchased from ATCC) were inoculated at a concentration of 1*10^5/mL into the 96-well plate of (1), with 100 μL per well, to reach a final volume of 200 μL per well. The final concentration of drug was 0.25 times the initial concentration.\n(5) RD cells were cultured at 37° C. for 4 days for testing.\n(6) The Buffer of CellTiter-Glo® luminescent cell viability assay reagent (Promega) was mixed with the substrate in the dark to prepare a working solution.\n(7) The culture medium in the plate was discarded, the plate was dried by patting, 100 μL of the detection reagent was added to each well, and the 96-well plate was shaken on an orbital shaker for 4 minutes to induce cell lysis. After keeping in the dark and subjecting to signal stabilization for 15 minutes, the chemiluminescence unit was detected by using MD5 microplate reader (Molecular Devices), and the plate reading program was performed according to the CellTiter-Glo preset program.\nThe inhibition rate-concentration curve was fitted to S-curve by using origin8.0 software to calculate the IC50 value of the compound to be tested.\nThe formula for calculating the inhibition rates of drug at different dilution degrees was as follows: inhibition rate (%)=(average value of cell control group−value of experimental group)/(average value of cell control group−minimum value of experimental group)*100\nThe inhibition rate-concentration curve was fitted to S-curve by using origin8.0 software, and the IC50 value of the compound to be tested was calculated. The same method was used to calculate the TD50 value, and the selection index SI=TD50/IC50 was calculated according to the half maximal inhibitory concentration IC50 and the median toxic dose TD50.", "values": [
      {"smiles": "CC(=O)/C=C/c1cnc2ccc(-c3ccc(N)nc3)cc2c1Nc1cccc(C(F)(F)F)c1", "note": "[HTL-2-34, (E)-6-[3-(6-amino)pyridyl]-4-[3-(trifluoromethyl)phenyl]aminoquinoline-3-butenone]", "SI": 2.80},
      {"smiles": "CC(=O)/C=C/c1cnc2ccc(-c3ccc(N)cc3)cc2c1Nc1cccc(C(F)(F)F)c1", "note": "[HTL-2-35, (E)-6-(4-amino)phenyl-4-[3-(trifluoromethyl)phenyl]aminoquinoline-3-butenone]", "SI": 1.39},
      {"smiles": "CC(=O)/C=C/c1cnc2ccc(-c3ccc(C)nc3)cc2c1Nc1cccc(C(F)(F)F)c1", "note": "[HTL-2-38, (E)-6-[3-(6-methyl)pyridyl]-4-[3-(trifluoromethyl)phenyl]aminoquinoline-3-butenone]", "SI": 3.06},
      {"smiles": "CC(=O)/C=C/c1cnc2ccc(-c3cn[nH]c3)cc2c1Nc1cccc(C(F)(F)F)c1", "note": "[HTL-3-26, (E)-6-(1H-4-pyrazolyl)-4-[3-(trifluoromethyl)phenyl]aminoquinoline-3-butenone]", "SI": 1.68},
      {"smiles": "Nc1ccc(-c2ccc3ncc4oc(=O)n(-c5cccc(C(F)(F)F)c5)c4c3c2)cn1", "note": "[HTL-4-32, 8-[3-(6-amino)pyridyl]-1-[3-(trifluoromethyl)phenyl]oxazolo[5,4-c]quinolin-2(1H)-one]", "SI": 2.60},
      {"smiles": "NC(=O)c1ccc(-c2ccc3ncc4oc(=O)n(-c5cccc(C(F)(F)F)c5)c4c3c2)cc1", "note": "[HTL-5-21, 8-(4-carbamoyl)phenyl-1-[3-(trifluoromethyl)phenyl]oxazolo[5,4-c]quinolin-2(1H)-one]", "SI": 3.48},
      {"smiles": "Cc1ccc(-c2ccc3ncc4oc(=O)n(-c5cccc(C(F)(F)F)c5)c4c3c2)cn1", "note": "[HTL-5-23, 8-[3-(6-methyl)pyridyl]-1-[3-(trifluoromethyl)phenyl]oxazolo[5,4-c] quinolin-2(1H)-one]", "SI": 3.53},
      {"smiles": "Nc1cccc(Nc2ccc3ncc4ccc(=O)n(-c5cccc(C(F)(F)F)c5)c4c3c2)c1", "note": "[HTL-6-11, 9-(3-aminophenyl)imino-2-oxo-1-[3-(trifluoromethyl)phenyl]-1,2-dihydrobenzo[h][1,6]naphthyridine]", "SI": 8.52},
      {"smiles": "Nc1cccc(Nc2ccc3ncc4ccc(=O)n(-c5cccc(C(F)(F)F)c5)c4c3c2)n1", "note": "[HTL-6-12, 9-[2-(6-aminopyridyl)]imino-2-oxo-1-[3-(trifluoromethyl)phenyl]-1,2-dihydrobenzo[h][1,6]naphthyridine]", "SI": 4.22},
      {"smiles": "CC(=O)Nc1ccc(Nc2ccc3ncc4ccc(=O)n(-c5cccc(C(F)(F)F)c5)c4c3c2)cc1", "note": "[HTL-6-27, 9-(4-acetylaminophenyl)imino-2-oxo-1-[3-(trifluoromethyl)phenyl]-1,2-dihydrobenzo[h][1,6]naphthyridine]", "SI": 1.49},
      {"smiles": "Nc1cncc(Nc2ccc3ncc4ccc(=O)n(-c5cccc(C(F)(F)F)c5)c4c3c2)c1", "note": "[HTL-6-29, 9-[3-(5-aminopyridyl)]imino-2-oxo-1-[3-(trifluoromethyl)phenyl]-1,2-dihydrobenzo[h][1,6]naphthyridine]", "SI": 16.37},
      {"smiles": "NC(=O)/C=C/c1ccc2ncc3oc(=O)n(-c4cccc(C(F)(F)F)c4)c3c2c1", "note": "[HTL-6-30, (E)-8-(2-carbamoyl-vinyl)-1-[3-(trifluoromethyl)phenyl]oxazolo[5,4-c]quinolin-2(1H)-one]", "SI": 1.89},
      {"smiles": "NC(=O)NC/C=C/c1ccc2ncc3oc(=O)n(-c4cccc(C(F)(F)F)c4)c3c2c1", "note": "[HTL-6-34, (E)-8-(3-ureido-propenyl)-1-[3-(trifluoromethyl)phenyl]oxazolo[5,4-c]quinolin-2(1H)-one]", "SI": 1.36},
      {"smiles": "O=c1ccc2cnc3ccc(-c4ccc5ncccc5c4)cc3c2n1-c1cccc(C(F)(F)F)c1", "note": "[HTL-6-47, 9-(6-quinolyl)-2-oxo-1-[3-(trifluoromethyl)phenyl]-1,2-dihydrobenzo[h][1,6]naphthyridine]", "SI": 0.12},
      {"smiles": "O=c1ccc2cnc3ccc(-c4ccc(F)nc4)cc3c2n1-c1cccc(C(F)(F)F)c1", "note": "[HTL-7-01, 9-[3-(6-fluoro)pyridyl]-2-oxo-1-[3-(trifluoromethyl)phenyl]-1,2-dihydrobenzo[h][1,6]naphthyridine]", "SI": 3.29},
      {"smiles": "COc1ccc(-c2ccc3ncc4ccc(=O)n(-c5cccc(C(F)(F)F)c5)c4c3c2)cn1", "note": "[HTL-7-03, 9-[3-(6-methoxy)pyridyl]-2-oxo-1-[3-(trifluoromethyl)phenyl]-1,2-dihydrobenzo[h][1,6]naphthyridine]", "SI": 3.25},
      {"smiles": "O=C1Cc2cc(-c3ccc4ncc5ccc(=O)n(-c6cccc(C(F)(F)F)c6)c5c4c3)ccc2N1", "note": "[HTL-7-04, 9-[5-(2-oxo)indolyl]-2-oxo-1-[3-(trifluoromethyl)phenyl]-1,2-dihydrobenzo[h][1,6]naphthyridine]", "SI": 0.98},
      {"smiles": "CCCC(=O)Nc1ccc(-c2ccc3ncc4ccc(=O)n(-c5cccc(C(F)(F)F)c5)c4c3c2)cn1", "note": "[HTL-7-05, 9-[3-(6-butyrylamino)pyridyl]-2-oxo-1-[3-(trifluoromethyl)phenyl]-1,2-dihydrobenzo[h][1,6]naphthyridine]", "SI": 5.77},
      {"smiles": "COc1ncc(-c2ccc3ncc4ccc(=O)n(-c5cccc(C(F)(F)F)c5)c4c3c2)cn1", "note": "[HTL-7-06, 9-[5-(2-methoxy)pyrimidyl]-2-oxo-1-[3-(trifluoromethyl)phenyl]-1,2-dihydrobenzo[h][1,6]naphthyridine]", "SI": 3.40},
      {"smiles": "CCCCC(=O)Nc1ccc(-c2ccc3ncc4ccc(=O)n(-c5cccc(C(F)(F)F)c5)c4c3c2)cn1", "note": "[HTL-7-08, 9-[3-(6-valerylamino)pyridyl]-2-oxo-1-[3-(trifluoromethyl)phenyl]-1,2-dihydrobenzo[h][1,6]naphthyridine]", "SI": 3.50},
      {"smiles": "O=C(Cc1ccccc1)Nc1ccc(-c2ccc3ncc4ccc(=O)n(-c5cccc(C(F)(F)F)c5)c4c3c2)cn1", "note": "[HTL-7-10, 9-[3-(6-phenylacetylamino)pyridyl]-2-oxo-1-[3-(trifluoromethyl)phenyl]-1,2-dihydrobenzo[h][1,6]naphthyridine]", "SI": 1.90},
      {"smiles": "Cc1noc(C)c1-c1ccc2ncc3ccc(=O)n(-c4cccc(C(F)(F)F)c4)c3c2c1", "note": "[HTL-7-12, 9-[4-(3,5-dimethyl)isoxazolyl]-2-oxo-1-[3-(trifluoromethyl)phenyl]-1,2-dihydrobenzo[h][1,6]naphthyridine]", "SI": ">5.42"},
      {"smiles": "O=c1ccc2cnc3ccc(C4=CCC5(CC4)OCCO5)cc3c2n1-c1cccc(C(F)(F)F)c1", "note": "[HTL-7-13, 9-(1,4-dioxa-spiro[4.5]dec-7-en-8-yl)-2-oxo-1-[3-(trifluoromethyl)phenyl]-1,2-dihydrobenzo[h][1,6]naphthyridine]", "SI": 7.59},
      {"smiles": "O=C(Nc1ccc(-c2ccc3ncc4ccc(=O)n(-c5cccc(C(F)(F)F)c5)c4c3c2)cn1)OCc1ccccc1", "note": "[HTL-7-14, 9-[3-(6-benzyloxyamido)pyridyl]-2-oxo-1-[3-(trifluoromethyl)phenyl]-1,2-dihydrobenzo[h][1,6]naphthyridine]", "SI": 0.04},
      {"smiles": "CN1CCN(c2ccc(-c3ccc4ncc5ccc(=O)n(-c6cccc(C(F)(F)F)c6)c5c4c3)cn2)CC1", "note": "[HTL-7-17, 9-{3-[6-(4-methylpiperazin-1-yl)pyridyl]}-2-oxo-1-[3-(trifluoromethyl)phenyl]-1,2-dihydrobenzo[h][1,6]naphthyridine]", "SI": 1.80},
      {"smiles": "O=c1ccc2cnc3ccc(-c4ccc(N5CCOCC5)nc4)cc3c2n1-c1cccc(C(F)(F)F)c1", "note": "[HTL-7-18, 9-[3-(6-morpholin-4-yl)pyridyl]-2-oxo-1-[3-(trifluoromethyl)phenyl]-1,2-dihydrobenzo[h][1,6]naphthyridine]", "SI": 1.62},
      {"smiles": "O=c1ccc2cnc3ccc(-c4ccc(N5CCCC5)nc4)cc3c2n1-c1cccc(C(F)(F)F)c1", "note": "[HTL-7-20, 9-[3-(6-pyrrolidinyl)pyridyl]-2-oxo-1-[3-(trifluoromethyl)phenyl]-1,2-dihydrobenzo[h][1,6]naphthyridine]", "SI": 17.90},
      {"smiles": "CC(C)(C)OC(=O)Nc1ccc(-c2ccc3ncc4ccc(=O)n(-c5cccc(C(F)(F)F)c5)c4c3c2)cn1", "note": "[HTL-7-21, 9-[3-(6-tert-butoxycarbonylamino)pyridyl]-2-oxo-1-[3-(trifluoromethyl)phenyl]-1,2-dihydrobenzo[h][1,6]naphthyridine]", "SI": 0.33},
      {"smiles": "NC(=O)/C=C/c1ccc2ncc3ccc(=O)n(-c4cccc(C(F)(F)F)c4)c3c2c1", "note": "[HTL-7-24, (E)-9-(2-carbamoyl-vinyl)-2-oxo-1-[3-(trifluoromethyl)phenyl]-1,2-dihydrobenzo[h][1,6]naphthyridine]", "SI": 1.67},
      {"smiles": "NC(=O)NC/C=C/c1ccc2ncc3ccc(=O)n(-c4cccc(C(F)(F)F)c4)c3c2c1", "note": "[HTL-7-25, (E)-9-[3-ureido-propenyl]-2-oxo-1-[3-(trifluoromethyl)phenyl]-1,2-dihydrobenzo[h][1,6]naphthyridine]", "SI": 10.78}
    ]}
  ]
}
